# Potato spindle tuber viroid, loop 15: variant abundance in plants

Values reported by Wu et al. 2024 (doi:10.1371/journal.ppat.1012142).

PSTVd intermediate strain, loop 15: wild type GGAAACCGCUACUAC, pool pattern GGAAACCGNNNNNNC; upper and lower strand joined, each 5' to 3', the first 7 letters being the upper strand, closing pairs included.

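A pool of all variants was put on leaves of three Nicotiana benthamiana plants. Samples came from the inoculated region at 5 days, the leaf margin at 10 and upper systemic leaves at 12.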

Values are reads per thousand in the sample; higher means more abundant, 0 means not found.
Each site shows the three plants.
"Pool" is the share in the plasmid pool used as inoculum, on the same scale.
The inoculated region was read from the minus strand, the other sites from the plus strand.
IR is the inoculated region, LM the leaf margin, Sys the systemic leaves.
Samples held 43,870 to 66,106 reads, so the smallest values rest on one or two reads.

sequence,pool,IR,LM,Sys
GGAAACCGUACCCGC,0.128,0.0491 0.0964 0.0190,0.0162 0 0.0401,0 0 0
GGAAACCGUACCCUC,0.176,0.115 0.129 0.0381,0 0.0445 0,0.0161 0 0
GGAAACCGUACCGAC,0.240,0.164 0.0964 0.114,0.0323 0 0,0 0 0
GGAAACCGUACCGCC,0.208,0.0983 0.0803 0.0571,0 0 0,0.0161 0 0
GGAAACCGUACCGGC,0.256,0.0819 0.129 0.0381,0 0 0.0200,0.0161 0 0
GGAAACCGUACCGUC,0.240,0.0328 0.0964 0.133,0 0 0.0200,0 0 0
GGAAACCGUACCUAC,0.288,0.442 0.305 0.457,0.129 0.134 0.180,0.0483 0.0303 0.114
GGAAACCGUACCUCC,0.192,0.0819 0.209 0.0571,0.0162 0 0.0401,0 0 0
GGAAACCGUACCUGC,0.208,0.0655 0.0643 0.114,0.0162 0 0.0200,0 0 0
GGAAACCGUACCUUC,0.144,0.295 0.321 0.438,0.0647 2.23 0.0401,0 0 0
GGAAACCGUACGAAC,0.304,0.442 0.305 0.343,0.113 0.0445 0.140,0.0322 0.0151 0
GGAAACCGUACGACC,0.240,0.147 0.0803 0.114,0.0323 0 0,0 0 0
GGAAACCGUACGAGC,0.272,0.197 0.145 0.133,0.0162 0.0223 0,0 0 0
GGAAACCGUACGAUC,0.176,0.197 0.289 0.0952,0 0 0.0601,0 0 0
GGAAACCGUACGCAC,0.160,0.164 0.112 0.0190,0 0 0,0 0 0
GGAAACCGUACGCCC,0.272,0.0819 0.0803 0.0952,0 0 0.100,0 0 0
GGAAACCGUACGCGC,0.208,0.147 0.129 0.133,0.0323 0.0223 0.0801,0.0161 0 0
GGAAACCGUACGCUC,0.240,0.0819 0.0643 0.0190,0.0162 0 0.0200,0 0 0
GGAAACCGUACGGAC,0.256,0.295 0.337 0.381,0.226 0.134 0.240,0.0644 0 0
GGAAACCGUACGGCC,0.320,0.197 0.0482 0.114,0 0.0445 0,0 0 0
GGAAACCGUACGGGC,0.304,0.0983 0.0964 0.0762,0.0162 0.0223 0,0 0 0
GGAAACCGUACGGUC,0.256,0.262 0.289 0.305,0 0.0223 0,0 0 0
GGAAACCGUACGUAC,0.240,0.360 0.402 0.362,0.129 0.0891 0.140,0.0161 0.0151 0.114
GGAAACCGUACGUCC,0.240,0.426 0.353 0.495,0.113 0.178 0.120,0.0322 0.0454 0.0228
GGAAACCGUACGUGC,0.144,0.278 0.257 0.381,0 0.0445 0.140,0.0483 0.0908 0.0684
GGAAACCGUACGUUC,0.128,0.229 0.353 0.286,0.146 0.0668 0.120,0.0483 0.0908 0.0912
GGAAACCGUACUAAC,0.160,0.246 0.402 0.228,0.129 0.0668 0.0801,0.0322 0 0
GGAAACCGUACUACC,0.192,0.0983 0.112 0.0571,0.0162 0 0.0200,0 0 0
GGAAACCGUACUAGC,0.208,0.115 0.0803 0.0571,0.0162 0 0,0.0322 0 0
GGAAACCGUACUAUC,0.208,0.0655 0.0482 0.0381,0 0.0223 0,0 0 0
GGAAACCGUACUCAC,0.176,0.262 0.305 0.362,0.113 0.0668 0.0601,0.0483 0 0
GGAAACCGUACUCCC,0.240,0.0819 0.161 0.0952,0 0 0.0401,0 0 0
GGAAACCGUACUCGC,0.208,0.0819 0.0803 0.152,0 0 0.0401,0 0 0
GGAAACCGUACUCUC,0.304,0.147 0.112 0.0571,0.0162 0 0,0.0161 0 0
GGAAACCGUACUGAC,0.240,0.147 0.0321 0.133,0 0 0.0200,0 0 0
GGAAACCGUACUGCC,0.112,0.0328 0.129 0.0762,0.0162 0 0,0 0 0
GGAAACCGUACUGGC,0.240,0.164 0.0964 0.152,0 0 0.0200,0 0 0.0228
GGAAACCGUACUGUC,0.224,0.0655 0.112 0.152,0.0162 0 0,0 0 0
GGAAACCGUACUUAC,0.240,0.442 0.434 0.419,0.0647 0.200 0.0401,0.0322 0.0303 0.0684
GGAAACCGUACUUCC,0.224,0.115 0.129 0.114,0.0162 0.0223 0,0 0 0
GGAAACCGUACUUGC,0.288,0.0655 0.0643 0.0952,0.0162 0 0,0 0 0
GGAAACCGUACUUUC,0.208,0.344 0.289 0.305,0.113 0.0445 0.140,0.0161 0 0
GGAAACCGUAGAAAC,0.0960,0.0983 0.209 0.133,0 0.0223 0,0.0161 0 0
GGAAACCGUAGAACC,0.240,0.0328 0.0643 0,0.0162 0.0223 0.0200,0 0 0.0228
GGAAACCGUAGAAGC,0.208,0.0164 0.0482 0.0190,0.0162 0 0,0 0 0
GGAAACCGUAGAAUC,0.240,0.0164 0.145 0.0762,0 0 0,0 0 0
GGAAACCGUAGACAC,0.176,0.0655 0.112 0.0952,0 0.0223 0.0200,0.0161 0 0
GGAAACCGUAGACCC,0.224,0.0491 0.129 0.0952,0 0.0223 0.0200,0 0 0
GGAAACCGUAGACGC,0.208,0.115 0.0321 0.0381,0.0323 0.0223 0.0401,0 0 0
GGAAACCGUAGACUC,0.160,0.0655 0.0482 0.0571,0.0162 0 0,0.0161 0 0
GGAAACCGUAGAGAC,0.224,0.0819 0.0964 0.0762,0.0162 0 0,0.0161 0 0
GGAAACCGUAGAGCC,0.192,0.131 0.0161 0.0381,0 0 0,0 0 0
GGAAACCGUAGAGGC,0.112,0.0328 0.177 0.171,0 0 0.0200,0 0 0
GGAAACCGUAGAGUC,0.224,0.0819 0.129 0.0952,0 0.0223 0.0401,0.0161 0 0
GGAAACCGUAGAUAC,0.240,0.262 0.369 0.286,0.0970 0.0445 0.0401,0.0322 0.0303 0.0456
GGAAACCGUAGAUCC,0.192,0.0491 0.0321 0.0952,0.0162 0 0,0.0161 0 0.0228
GGAAACCGUAGAUGC,0.352,0.0819 0.0803 0.114,0.0162 0 0,0 0 0
GGAAACCGUAGAUUC,0.192,0.295 0.353 0.324,0.0808 0.0445 0.220,0.0161 0 0
GGAAACCGUAGCAAC,0.256,0.0983 0.0803 0.0762,0 0 0,0 0 0
GGAAACCGUAGCACC,0.112,0.0328 0.0643 0.0571,0.0162 0 0,0 0 0
GGAAACCGUAGCAGC,0.224,0.0328 0.0964 0.0571,0.0162 0 0,0 0 0
GGAAACCGUAGCAUC,0.304,0.0491 0.129 0.0571,0 0.0223 0.0200,0 0 0
GGAAACCGUAGCCAC,0.240,0.0819 0.0482 0.0952,0 0 0,0 0 0.0228
GGAAACCGUAGCCCC,0.256,0.0491 0.0643 0.209,0 0.0223 0,0 0 0.0228

A selection of 4 entries from above:

* GGAAACCGUACCCUC (pool 0.176) -> IR 0.115 0.129 0.0381; LM 0 0.0445 0; Sys 0.0161 0 0
* GGAAACCGUACUAUC (pool 0.208) -> IR 0.0655 0.0482 0.0381; LM 0 0.0223 0; Sys 0 0 0
* GGAAACCGUAGAGUC (pool 0.224) -> IR 0.0819 0.129 0.0952; LM 0 0.0223 0.0401; Sys 0.0161 0 0
* GGAAACCGUAGCACC (pool 0.112) -> IR 0.0328 0.0643 0.0571; LM 0.0162 0 0; Sys 0 0 0

The authors trace changes outside the varied positions to PCR and sequencing errors or to mutation in the plant; presence does not show that a variant is infectious alone.
Wild type was 33.9 per thousand in the pool and the most common sequence in every sample (inoculated region 202, 200, 159; leaf margin 724, 746, 710; systemic leaves 856, 883, 880).